Legend:
[1] = test system: Luc-ID8 ovarian cancer cells; assay: Syngeneic Luc-ID8 ovarian cancer model: intraperitoneal tumor growth by bioluminescence, and survival; format: in vivo, C57BL/6 mice; settings: for median survival: Luc-ID8 tumor-bearing mice, saline 55 days; for median survival / tumor growth as recorded by bioluminescence signals: 4 μg per mouse i.p.
[2] = test system: ovarian cancer and mesothelioma; settings: previous study (Yuan J, et al. 2014); cited from earlier work
[3] = test system: Luc-40L mesothelioma cancer cells; assay: Luc-40L mesothelioma model, survival (Example 4); format: in vivo, C57BL/6 mice; settings: compared to saline, VIC-008 20 μg, AMD3100 1 μg/g body weight, once a week for four weeks
[4] = test system: 40L mouse mesothelioma cell line; assay: 40L intraperitoneal malignant mesothelioma model: tumor weight and survival (Example 5); format: in vivo, C57BL/6 mice; settings: compared to saline
[5] = test system: AE17 mouse mesothelioma cell line; assay: AE17 intraperitoneal malignant mesothelioma model: tumor weight and survival (Example 5); format: in vivo, C57BL/6 mice; settings: compared to saline
[6] = test system: 40L mouse mesothelioma cell line; assay: Immune profiling by flow cytometry of spleens and tumors of 40L tumor-bearing mice; format: in vivo, C57BL/6 mice; settings: for proportion of CD8+ T cells in total live cells / proportion of PD-1-expressing CD8+ T cells: 40L, compared to saline
[7] = test system: AE17 mouse mesothelioma cell line; assay: Immune profiling by flow cytometry of spleens, lymph nodes and tumors of AE17 tumor-bearing mice; format: in vivo, C57BL/6 mice; settings: for proportion of CD8+ T cells in total live cells / proportion of PD-1-expressing CD8+ T cells: AE17, compared to saline
[8] = test system: 40L mouse mesothelioma cell line; assay: Ex vivo restimulation with recombinant mesothelin, intracellular IFN-γ in CD8+ T cells, 40L mice; parameters: species or system C57BL/6 mice; settings: splenic CD8+ T cells, compared to saline
[9] = test system: AE17 mouse mesothelioma cell line; assay: Ex vivo restimulation with recombinant mesothelin, intracellular IFN-γ in CD8+ T cells, AE17 mice; parameters: species or system C57BL/6 mice; settings: compared to saline
[10] = compared to saline, Log-rank test
[11] = compared to saline, 4 treatments at 7-day intervals

B1: VIC-007: original scFv-MtbHsp70 fusion protein: VH and VL from anti-MSLN p4 scFv fused to full length MtbHsp70 with a (G4S)3 linker (protein)
chain: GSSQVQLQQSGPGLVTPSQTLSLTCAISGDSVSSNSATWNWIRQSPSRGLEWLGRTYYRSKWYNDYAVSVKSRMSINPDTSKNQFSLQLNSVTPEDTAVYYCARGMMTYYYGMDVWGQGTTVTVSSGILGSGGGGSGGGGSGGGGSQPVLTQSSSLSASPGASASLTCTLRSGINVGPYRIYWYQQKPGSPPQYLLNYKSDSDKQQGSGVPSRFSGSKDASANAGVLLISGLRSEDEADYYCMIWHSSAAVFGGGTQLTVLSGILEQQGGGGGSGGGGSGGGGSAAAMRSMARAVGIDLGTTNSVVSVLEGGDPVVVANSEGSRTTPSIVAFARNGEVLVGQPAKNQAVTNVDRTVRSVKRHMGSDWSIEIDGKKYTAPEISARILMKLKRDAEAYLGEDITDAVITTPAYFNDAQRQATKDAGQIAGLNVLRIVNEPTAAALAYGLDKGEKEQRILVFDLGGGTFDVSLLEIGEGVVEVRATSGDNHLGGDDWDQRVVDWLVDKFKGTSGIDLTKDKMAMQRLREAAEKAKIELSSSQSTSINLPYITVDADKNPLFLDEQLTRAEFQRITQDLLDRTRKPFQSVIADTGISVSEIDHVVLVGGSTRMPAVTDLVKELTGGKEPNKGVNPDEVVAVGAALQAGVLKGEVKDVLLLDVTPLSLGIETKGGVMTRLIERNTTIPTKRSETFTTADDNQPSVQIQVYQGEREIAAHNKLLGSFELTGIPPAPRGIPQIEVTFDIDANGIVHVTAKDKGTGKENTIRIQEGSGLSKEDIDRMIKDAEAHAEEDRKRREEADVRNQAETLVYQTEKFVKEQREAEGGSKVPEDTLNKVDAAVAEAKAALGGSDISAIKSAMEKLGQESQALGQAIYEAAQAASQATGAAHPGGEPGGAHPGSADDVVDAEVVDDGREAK
modifications: fusion protein
notes: original scFv-MtbHsp70 fusion protein: VH and VL from anti-MSLN p4 scFv fused to full length MtbHsp70 with a (G4S)3 linker
- median survival [1]: 60 days
- survival of tumor-bearing mice [1, 10]: significantly enhanced the survival
- tumor growth as recorded by bioluminescence signals [1, 11]: significantly slowed tumor growth
- control of tumor growth and survival of tumor-bearing mice [2]: achieved significant control of tumor growth and prolongation of the survival of tumor-bearing mice

B2: VIC-008: scFv-MtbHsp70 fusion protein (anti-MSLN scFv fused to MtbHsp70), modified from VIC-007, phenylalanine in place of valine at position 381 of MtbHsp70 (protein)
chain: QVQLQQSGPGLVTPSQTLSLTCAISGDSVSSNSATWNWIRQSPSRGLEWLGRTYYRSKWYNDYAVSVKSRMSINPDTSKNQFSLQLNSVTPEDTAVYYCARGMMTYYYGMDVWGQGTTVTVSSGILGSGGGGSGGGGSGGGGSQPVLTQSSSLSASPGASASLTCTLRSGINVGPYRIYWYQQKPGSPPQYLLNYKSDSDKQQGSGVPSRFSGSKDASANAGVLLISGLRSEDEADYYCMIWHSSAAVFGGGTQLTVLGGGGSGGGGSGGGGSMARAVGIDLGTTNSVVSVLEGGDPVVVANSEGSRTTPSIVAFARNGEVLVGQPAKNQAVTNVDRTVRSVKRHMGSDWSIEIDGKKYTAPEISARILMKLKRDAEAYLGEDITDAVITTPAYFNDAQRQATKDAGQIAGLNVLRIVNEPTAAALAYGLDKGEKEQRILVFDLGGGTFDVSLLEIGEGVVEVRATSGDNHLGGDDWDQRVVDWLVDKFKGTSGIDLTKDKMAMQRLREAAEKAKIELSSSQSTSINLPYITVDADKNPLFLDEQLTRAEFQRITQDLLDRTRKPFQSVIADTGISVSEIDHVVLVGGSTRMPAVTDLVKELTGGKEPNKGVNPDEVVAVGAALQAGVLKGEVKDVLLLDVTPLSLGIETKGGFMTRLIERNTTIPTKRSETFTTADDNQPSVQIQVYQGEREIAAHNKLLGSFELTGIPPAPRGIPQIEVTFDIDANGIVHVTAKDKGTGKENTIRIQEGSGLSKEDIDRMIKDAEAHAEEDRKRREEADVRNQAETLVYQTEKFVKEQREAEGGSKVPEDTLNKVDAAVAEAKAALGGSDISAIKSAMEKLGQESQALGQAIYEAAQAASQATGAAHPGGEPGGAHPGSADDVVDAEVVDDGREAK
modifications: fusion protein
notes: scFv-MtbHsp70 fusion protein (anti-MSLN scFv fused to MtbHsp70), modified from VIC-007, phenylalanine in place of valine at position 381 of MtbHsp70
- median survival [1]: 65 days
- survival of tumor-bearing mice ([1]; compared to VIC-007, Log-rank test): further significantly prolonged the survival
- tumor growth as recorded by bioluminescence signals ([1]; compared to VIC-007): further significantly delayed tumor growth
- survival of tumor-bearing mice [1, 10]: significantly enhanced the survival
- tumor growth as recorded by bioluminescence signals [1, 11]: significantly slowed tumor growth
- survival of tumor-bearing mice [3]: significantly enhanced the survival
- total weight of intraperitoneal tumors / tumor control ([4]; 40L, one week after the last treatment): generally reduced
- animal survival ([4]; […]): significantly prolonged
- animal survival [5]: significantly prolonged
- total weight of intraperitoneal tumors / tumor control ([5]; one week after the last treatment): generally reduced
- percentage of PD-1 expressing CD8+ T cells ([6]; 40L tumors): 43-76%
- proportion of CD8+ T cells in total live cells ([6]; spleens): significantly increased
- proportion of PD-1-expressing CD8+ T cells ([6]; spleens): no significant difference
- proportion of CD8+ T cells in total live cells ([6]; tumors): significantly increased
- proportion of PD-1-expressing CD8+ T cells ([6]; tumors): significantly more
- percentage of PD-1 expressing CD8+ T cells ([7]; AE17 tumors): 28-47%
- proportion of CD8+ T cells in total live cells ([7]; lymph nodes): significantly increased
- proportion of PD-1-expressing CD8+ T cells ([7]; lymph nodes): no significant difference
- percentage of PD-1 expressing CD8+ T cells ([7]; spleen and lymph nodes): 5-10%
- proportion of CD8+ T cells in total live cells ([7]; spleens): significantly increased
- proportion of PD-1-expressing CD8+ T cells ([7]; spleens): no significant difference
- proportion of CD8+ T cells in total live cells ([7]; tumors): significantly increased
- proportion of PD-1-expressing CD8+ T cells ([7]; tumors): significantly more
- mesothelin-specific IFN-γ expression in CD8+ T cells [8]: significantly greater
- mesothelin-specific IFN-γ expression in CD8+ T cells ([9]; lymph node CD8+ T cells): significantly greater
- mesothelin-specific IFN-γ expression in CD8+ T cells ([9]; splenic CD8+ T cells): significantly greater

Reference: patent publication US12540165B2, “HSP fusion protein with anti-chemorepellant agent for treatment of cancer” (The General Hospital Corporation, priority 2016, dated 2026)
